Values from PubChem BioAssay AID504761 (Drosophila RNAi Screening Center, 2011)

Test: 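Genome-wide fly cell screen for genes dengue virus requires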 (primary screen)
System: D.Mel-2 cells from Drosophila
Reagent: long dsRNA against Drosophila genes
Challenge: infection with dengue virus type 2; dose and infection time not stated
Read-out: 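Cells stained for dengue envelope protein and imaged; percent of infected cells per well on duplicate plates, ranked by infection, with stained nuclei counted for cell number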
Direction: infection score: higher = more virus-infected cells; cell count: higher = more cells in the well
Rule for the call: 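Low infection ranks in the two replicates (chance level up to 0.065) followed by a retest with a 1.5-fold or larger significant decrease, p below 0.05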
Calls: active = confirmed: knock-down lowers infection; inactive = not picked or not confirmed
The deposit covers about 22,000 reagents; below is an unselected part of those with a known target gene and a result. In the full data, 116 (0.52%) got an active call. 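Calls depend on retest data that are not deposited; infection was ranked per plate without normalising between plates; the unit of the infection score is not given.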 Raw values are not corrected between plates. A plus sign joins genes that one reagent is predicted to hit. Not stated in the record: the amount of reagent, the time to read-out.

| gene | amplicon | infection score, replicate 1 | infection score, replicate 2 | cell count, replicate 1 | cell count, replicate 2 | call |
| --- | --- | --- | --- | --- | --- | --- |
| oxt (peptide O-xylosyltransferase) | DRSC08522 | 3.8 | 3.65 | 6999 | 6639 | inactive |
| CG3907 | DRSC04432 | 21.2 | 12.4 | 6160 | 6800 | inactive |
| CG32269 + CG32270 | DRSC08195 | 3.31 | 0.64 | 5926 | 6081 | inactive |
| sturkopf | DRSC08637 | 7.44 | 15.2 | 6116 | 5437 | inactive |
| sturkopf | DRSC29932 | 5.18 | 10.1 | 6058 | 6406 | inactive |
| snRNP-U1-C (small ribonucleoprotein particle U1 subunit C) | DRSC15804 | 8.54 | 9.3 | 3196 | 3711 | inactive |
| CG31867 | DRSC03338 | 10.5 | 7.73 | 6176 | 6697 | inactive |
| CG14929 + CG4970 | DRSC02411 | 27.6 | 24.2 | 6133 | 4648 | inactive |
| CG14929 + CG4970 | DRSC02796 | 11.2 | 21.7 | 3809 | 5199 | inactive |
| CG10996 | DRSC19363 | 10.1 | 7.15 | 5875 | 6165 | inactive |
| Ir94d (Ionotropic receptor 94d) | DRSC21568 | 2.54 | 2.68 | 6172 | 6502 | inactive |
| Cep290 (Centrosomal protein 290kDa) | DRSC08359 | 3.39 | 2.39 | 6203 | 6265 | inactive |
| Cep290 (Centrosomal protein 290kDa) | DRSC29987 | 13 | 6.1 | 6101 | 6133 | inactive |
| Rel (Relish) | DRSC16819 | 9.96 | 15.1 | 3917 | 5803 | inactive |
| Lcp4 (Larval cuticle protein 4) | DRSC07458 | 10.4 | 11.7 | 5824 | 6559 | inactive |
| Lcp4 (Larval cuticle protein 4) | DRSC25194 | 1.13 | 2.12 | 6195 | 6035 | inactive |
| CG14968 | DRSC08427 | 2.09 | 2.2 | 6270 | 6488 | inactive |
| CG14968 | DRSC28793 | 22.6 | 20.3 | 5751 | 5498 | inactive |
| CG32115 | DRSC22607 | 3.91 | 4.59 | 6472 | 6149 | inactive |
| CG8006 | DRSC10949 | 5.14 | 4.48 | 6638 | 6222 | inactive |
| Vha36-2 (Vacuolar H[+] ATPase 36kD subunit 2) | DRSC06294 | 13.7 | 16.6 | 3878 | 5599 | inactive |
| Vha36-2 (Vacuolar H[+] ATPase 36kD subunit 2) | DRSC29238 | 15.2 | – | 1615 | 309 | inactive |
| mthl15 (methuselah-like 15) | DRSC01120 | 1.74 | 0.68 | 6385 | 6009 | inactive |

Quoted from the entries so far for reference:
| gene | amplicon | infection score, replicate 1 | infection score, replicate 2 | cell count, replicate 1 | cell count, replicate 2 | call |
| --- | --- | --- | --- | --- | --- | --- |
| CG32269 + CG32270 | DRSC08195 | 3.31 | 0.64 | 5926 | 6081 | inactive |
| sturkopf | DRSC08637 | 7.44 | 15.2 | 6116 | 5437 | inactive |
